# What was measured:
# Protein sequences, listed by entry. Tags and fused reporters are not part of them. Residues count along the entry.
# UniProt P04756, 21-457 limits assumed: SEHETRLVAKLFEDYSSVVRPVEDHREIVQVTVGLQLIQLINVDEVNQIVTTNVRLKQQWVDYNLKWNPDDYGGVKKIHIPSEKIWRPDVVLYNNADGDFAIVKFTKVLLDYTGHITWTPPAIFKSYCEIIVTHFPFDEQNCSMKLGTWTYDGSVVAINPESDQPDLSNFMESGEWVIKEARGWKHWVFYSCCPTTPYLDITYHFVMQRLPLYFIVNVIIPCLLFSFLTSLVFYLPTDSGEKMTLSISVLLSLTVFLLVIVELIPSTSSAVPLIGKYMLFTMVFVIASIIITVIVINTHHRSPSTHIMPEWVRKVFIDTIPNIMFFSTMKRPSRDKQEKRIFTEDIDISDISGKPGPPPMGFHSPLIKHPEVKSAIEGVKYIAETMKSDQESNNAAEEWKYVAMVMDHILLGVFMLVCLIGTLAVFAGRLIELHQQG
# UniProt P09690, 24-501 partner limits assumed: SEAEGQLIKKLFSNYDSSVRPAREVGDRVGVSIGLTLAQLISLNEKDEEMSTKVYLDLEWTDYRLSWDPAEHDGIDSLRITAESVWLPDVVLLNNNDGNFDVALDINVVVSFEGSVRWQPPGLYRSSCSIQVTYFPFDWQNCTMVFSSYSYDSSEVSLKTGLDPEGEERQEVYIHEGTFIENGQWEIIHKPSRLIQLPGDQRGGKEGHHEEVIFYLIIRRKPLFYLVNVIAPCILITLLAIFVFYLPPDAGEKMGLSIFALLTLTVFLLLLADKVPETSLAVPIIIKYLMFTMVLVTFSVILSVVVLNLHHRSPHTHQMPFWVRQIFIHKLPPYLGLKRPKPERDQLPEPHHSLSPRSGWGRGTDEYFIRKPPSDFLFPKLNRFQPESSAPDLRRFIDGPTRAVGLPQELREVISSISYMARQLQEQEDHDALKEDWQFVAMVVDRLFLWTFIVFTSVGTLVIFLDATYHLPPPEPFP
# UniProt P02716, 25-520 partner limits assumed: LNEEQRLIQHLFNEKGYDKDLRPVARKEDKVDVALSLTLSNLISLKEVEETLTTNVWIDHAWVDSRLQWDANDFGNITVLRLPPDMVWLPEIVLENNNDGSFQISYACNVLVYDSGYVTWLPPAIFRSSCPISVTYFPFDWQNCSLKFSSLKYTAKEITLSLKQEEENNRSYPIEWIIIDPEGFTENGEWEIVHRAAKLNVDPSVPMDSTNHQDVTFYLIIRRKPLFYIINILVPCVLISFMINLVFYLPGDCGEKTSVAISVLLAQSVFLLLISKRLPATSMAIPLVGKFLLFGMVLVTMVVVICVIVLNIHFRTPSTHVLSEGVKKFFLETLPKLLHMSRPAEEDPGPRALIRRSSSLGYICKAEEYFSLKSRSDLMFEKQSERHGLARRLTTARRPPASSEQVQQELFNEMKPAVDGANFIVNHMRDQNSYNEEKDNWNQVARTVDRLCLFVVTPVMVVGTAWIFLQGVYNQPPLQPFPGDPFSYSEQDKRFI
# UniProt P20782, 21-493 partner limits assumed: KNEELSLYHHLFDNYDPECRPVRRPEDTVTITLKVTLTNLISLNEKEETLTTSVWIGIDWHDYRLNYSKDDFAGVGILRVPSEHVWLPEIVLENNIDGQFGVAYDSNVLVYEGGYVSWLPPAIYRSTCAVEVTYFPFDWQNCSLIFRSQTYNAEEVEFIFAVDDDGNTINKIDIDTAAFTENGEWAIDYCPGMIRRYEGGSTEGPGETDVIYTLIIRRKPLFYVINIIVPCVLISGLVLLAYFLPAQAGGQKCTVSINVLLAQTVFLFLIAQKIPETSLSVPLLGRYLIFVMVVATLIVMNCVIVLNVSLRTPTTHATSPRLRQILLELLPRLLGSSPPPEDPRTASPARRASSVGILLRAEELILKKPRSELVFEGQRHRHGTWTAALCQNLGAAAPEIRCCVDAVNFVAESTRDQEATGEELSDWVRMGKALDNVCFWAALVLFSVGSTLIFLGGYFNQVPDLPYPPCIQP
# [1] = Selectivity ratio of IC50 for mouse alpha1beta1deltaepsilon nACh receptor to IC50 for rat alpha9alpha10 nACh receptor
# [2] = target: Nicotinic acetylcholine receptor alpha1/beta1/epsilon/delta (Mus musculus) (UniProt P04756+P09690+P02716+P20782); assay: Antagonist activity at mouse alpha1beta1deltaepsilon nACh receptor expressed in Xenopus oocyte assessed as inhibition of acetylcholine-induced response at -70 mV holding potential by measuring ratio of IC50 by voltage-clamp based electrophysiological assay relative to GeXIVA; conditions: filed as antagonist
Compound,Ratio IC50 [1],Ratio IC50 [2]
CC[C@H](C)[C@@H]1NC(=O)[C@H](CCCNC(=N)N)NC(=O)[C@H](CCCNC(=N)N)NC(=O)[C@@H]2CSSC[C@H](NC(=O)[C@H](Cc3ccc(O)cc3)NC(=O)[C@H](CCCNC(=N)N)NC(=O)CNC(=O)[C@H](C)NC(=O)[C@H](CO)NC(=O)[C@H](CCCNC(=N)N)NC(=O)[C@@H](NC(=O)[C@@H](N)[C@@H](C)O)CSSC[C@@H](C(=O)N[C@H](C(=O)O)C(C)C)NC(=O)[C@H](C)NC(=O)[C@H](CC(=O)O)NC(=O)[C@H]([C@@H](C)O)NC1=O)C(=O)N[C@@H](CCCNC(=N)N)C(=O)N[C@@H](CO)C(=O)N1CCC[C@H]1C(=O)N[C@@H](Cc1ccc(O)cc1)C(=O)N[C@@H](CC(=O)O)C(=O)N[C@@H](CCCNC(=N)N)C(=O)N[C@@H](CCCNC(=N)N)C(=O)N[C@@H](CCCNC(=N)N)C(=O)N[C@@H](CCCNC(=N)N)C(=O)N[C@@H](Cc1ccc(O)cc1)C(=O)N2,15.2,1.1
CC[C@H](C)[C@@H]1NC(=O)[C@H](CCCNC(=N)N)NC(=O)[C@H](C)NC(=O)[C@@H]2CSSC[C@H](NC(=O)[C@H](Cc3ccc(O)cc3)NC(=O)[C@H](CCCNC(=N)N)NC(=O)CNC(=O)[C@H](CO)NC(=O)[C@H](CO)NC(=O)[C@H](CCCNC(=N)N)NC(=O)[C@@H](NC(=O)[C@@H](N)[C@@H](C)O)CSSC[C@@H](C(=O)N[C@H](C(=O)O)C(C)C)NC(=O)[C@H](C)NC(=O)[C@H](CC(=O)O)NC(=O)[C@H]([C@@H](C)O)NC1=O)C(=O)N[C@@H](CCCNC(=N)N)C(=O)N[C@@H](CO)C(=O)N1CCC[C@H]1C(=O)N[C@@H](Cc1ccc(O)cc1)C(=O)N[C@@H](CC(=O)O)C(=O)N[C@@H](CCCNC(=N)N)C(=O)N[C@@H](CCCNC(=N)N)C(=O)N[C@@H](CCCNC(=N)N)C(=O)N[C@@H](CCCNC(=N)N)C(=O)N[C@@H](Cc1ccc(O)cc1)C(=O)N2,23.2,1
CC[C@H](C)[C@@H]1NC(=O)[C@H](CCCNC(=N)N)NC(=O)[C@H](CCCNC(=N)N)NC(=O)[C@@H](NC(=O)[C@H](Cc2ccc(O)cc2)NC(=O)[C@H](CCCNC(=N)N)NC(=O)[C@H](CCCNC(=N)N)NC(=O)[C@H](CCCNC(=N)N)NC(=O)[C@H](CCCNC(=N)N)NC(=O)[C@H](CC(=O)O)NC(=O)[C@H](Cc2ccc(O)cc2)NC(=O)[C@@H]2CCCN2C(=O)[C@H](CO)NC(=O)[C@H](CCCNC(=N)N)NC(=O)[C@@H]2CSSC[C@H](NC(=O)[C@@H](N)[C@@H](C)O)C(=O)N[C@@H](CCCNC(=N)N)C(=O)N[C@@H](CO)C(=O)N[C@@H](CO)C(=O)NCC(=O)N[C@@H](CCCNC(=N)N)C(=O)N[C@@H](C)C(=O)N2)CSSC[C@@H](C(=O)N[C@H](C(=O)O)C(C)C)NC(=O)[C@H](C)NC(=O)[C@H](CC(=O)O)NC(=O)[C@H]([C@@H](C)O)NC1=O,192,3.7
CC[C@H](C)[C@@H]1NC(=O)[C@H](CCCNC(=N)N)NC(=O)[C@H](CCCNC(=N)N)NC(=O)[C@@H](NC(=O)[C@H](Cc2ccc(O)cc2)NC(=O)[C@H](CCCNC(=N)N)NC(=O)[C@H](C)NC(=O)[C@H](CCCNC(=N)N)NC(=O)[C@H](CCCNC(=N)N)NC(=O)[C@H](CC(=O)O)NC(=O)[C@H](Cc2ccc(O)cc2)NC(=O)[C@@H]2CCCN2C(=O)[C@H](CO)NC(=O)[C@H](CCCNC(=N)N)NC(=O)[C@@H]2CSSC[C@H](NC(=O)[C@@H](N)[C@@H](C)O)C(=O)N[C@@H](CCCNC(=N)N)C(=O)N[C@@H](CO)C(=O)N[C@@H](CO)C(=O)NCC(=O)N[C@@H](CCCNC(=N)N)C(=O)N[C@@H](Cc3ccc(O)cc3)C(=O)N2)CSSC[C@@H](C(=O)N[C@H](C(=O)O)C(C)C)NC(=O)[C@H](C)NC(=O)[C@H](CC(=O)O)NC(=O)[C@H]([C@@H](C)O)NC1=O,233,12.1
CC[C@H](C)[C@@H]1NC(=O)[C@H](CCCNC(=N)N)NC(=O)[C@H](CCCNC(=N)N)NC(=O)[C@@H](NC(=O)[C@H](Cc2ccc(O)cc2)NC(=O)[C@H](CCCNC(=N)N)NC(=O)[C@H](CCCNC(=N)N)NC(=O)[C@H](CCCNC(=N)N)NC(=O)[C@H](CCCNC(=N)N)NC(=O)[C@H](CC(=O)O)NC(=O)[C@H](Cc2ccc(O)cc2)NC(=O)[C@@H]2CCCN2C(=O)[C@H](CO)NC(=O)[C@H](CCCNC(=N)N)NC(=O)[C@@H]2CSSC[C@H](NC(=O)[C@@H](N)[C@@H](C)O)C(=O)N[C@@H](CCCNC(=N)N)C(=O)N[C@@H](CO)C(=O)N[C@@H](CO)C(=O)NCC(=O)N[C@@H](CCCNC(=N)N)C(=O)N[C@@H](Cc3ccc(O)cc3)C(=O)N2)CSSC[C@@H](C(=O)N[C@H](C(=O)O)C(C)C)NC(=O)[C@H](C)NC(=O)[C@H](CC(=O)O)NC(=O)[C@H](C)NC1=O,186,7.5
CC[C@H](C)[C@@H]1NC(=O)[C@H](CCCNC(=N)N)NC(=O)[C@H](CCCNC(=N)N)NC(=O)[C@@H](NC(=O)[C@H](Cc2ccc(O)cc2)NC(=O)[C@H](CCCNC(=N)N)NC(=O)[C@H](CCCNC(=N)N)NC(=O)[C@H](CCCNC(=N)N)NC(=O)[C@H](CCCNC(=N)N)NC(=O)[C@H](C)NC(=O)[C@H](Cc2ccc(O)cc2)NC(=O)[C@@H]2CCCN2C(=O)[C@H](CO)NC(=O)[C@H](CCCNC(=N)N)NC(=O)[C@@H]2CSSC[C@H](NC(=O)[C@@H](N)[C@@H](C)O)C(=O)N[C@@H](CCCNC(=N)N)C(=O)N[C@@H](CO)C(=O)N[C@@H](CO)C(=O)NCC(=O)N[C@@H](CCCNC(=N)N)C(=O)N[C@@H](Cc3ccc(O)cc3)C(=O)N2)CSSC[C@@H](C(=O)N[C@H](C(=O)O)C(C)C)NC(=O)[C@H](C)NC(=O)[C@H](CC(=O)O)NC(=O)[C@H]([C@@H](C)O)NC1=O,53.3,1.5
CC[C@H](C)[C@@H]1NC(=O)[C@H](CCCNC(=N)N)NC(=O)[C@H](CCCNC(=N)N)NC(=O)[C@@H](NC(=O)[C@H](Cc2ccc(O)cc2)NC(=O)[C@H](CCCNC(=N)N)NC(=O)[C@H](CCCNC(=N)N)NC(=O)[C@H](CCCNC(=N)N)NC(=O)[C@H](CCCNC(=N)N)NC(=O)[C@H](CC(=O)O)NC(=O)[C@H](Cc2ccc(O)cc2)NC(=O)[C@@H]2CCCN2C(=O)[C@H](CO)NC(=O)[C@H](CCCNC(=N)N)NC(=O)[C@@H]2CSSC[C@H](NC(=O)[C@@H](N)[C@@H](C)O)C(=O)N[C@@H](CCCNC(=N)N)C(=O)N[C@@H](CO)C(=O)N[C@@H](C)C(=O)NCC(=O)N[C@@H](CCCNC(=N)N)C(=O)N[C@@H](Cc3ccc(O)cc3)C(=O)N2)CSSC[C@@H](C(=O)N[C@H](C(=O)O)C(C)C)NC(=O)[C@H](C)NC(=O)[C@H](CC(=O)O)NC(=O)[C@H]([C@@H](C)O)NC1=O,35.5,1.8
CC[C@H](C)[C@@H]1NC(=O)[C@H](CCCNC(=N)N)NC(=O)[C@H](CCCNC(=N)N)NC(=O)[C@@H](NC(=O)[C@H](Cc2ccc(O)cc2)NC(=O)[C@H](CCCNC(=N)N)NC(=O)[C@H](CCCNC(=N)N)NC(=O)[C@H](CCCNC(=N)N)NC(=O)[C@H](CCCNC(=N)N)NC(=O)[C@H](CC(=O)O)NC(=O)[C@H](Cc2ccc(O)cc2)NC(=O)[C@@H]2CCCN2C(=O)[C@H](CO)NC(=O)[C@H](CCCNC(=N)N)NC(=O)[C@@H]2CSSC[C@H](NC(=O)[C@@H](N)[C@@H](C)O)C(=O)N[C@@H](CCCNC(=N)N)C(=O)N[C@@H](C)C(=O)N[C@@H](CO)C(=O)NCC(=O)N[C@@H](CCCNC(=N)N)C(=O)N[C@@H](Cc3ccc(O)cc3)C(=O)N2)CSSC[C@@H](C(=O)N[C@H](C(=O)O)C(C)C)NC(=O)[C@H](C)NC(=O)[C@H](CC(=O)O)NC(=O)[C@H]([C@@H](C)O)NC1=O,83.3,1.9
